Data set [1] deals with P-BvrR (GST-BvrR phosphorylated with carbamoyl phosphate) (UniProt Q2YQY4). The data set is described as follows: EMSA. Conditions: recombinant protein, protein details: GST.
For data set [2] the target is unchanged. The data set is described as follows: competition with a labelled probe. Conditions: recombinant protein; protein details: GST; label: none as competitor, DIG (EMSA).
The target is the same in data set [3]. Briefly: fluorescence anisotropy. Conditions: one-site model, no Kd reported; recombinant protein; protein details: GST.
The target is the same in data set [4]. The data set is described as follows: DNase I footprinting. Conditions: recombinant protein; protein details: GST; label: DIG (EMSA), HEX or FAM (footprinting); letters put together from the description.
Where [5] appears, read: P-BvrR 0.1-1.6 uM, label: none as competitor, DIG (EMSA).

The exact form of at least one protein or probe is not confirmed. For part of these data: At least one verdict rests on a figure or table, not on a statement of the authors.

“GATATGTCACCCCTGTCAGCGCGGCATGGGCGGTTTACTCC (double strand) [oligonucleotide 4 (-100 to -59)]”: the binding result in data set [1] (setting [5]) and in data set [2] was “binds” each time.

On to “ATCTCCACACAATGGGGCATTTCGTGCCGCAATTACCCTCG (double strand) [oligonucleotide 2 (-140 to -100)]”, for which the binding result in data set [1] (P-BvrR 0.1-1.6 uM) and in data set [3] was “binds” throughout. “AGGGACCGCGCAAAACGTAATTTGTGTAAGGAGAATGCCA (double strand) [oligonucleotide 7 (-39 to +1)]”: the binding result in data set [1] (setting [5]) and in data set [2] was “binds” in each case.

For “GCCATCTTCTCGACAGATTATCTCCACACAATGGGGCATTTCGTGCCGCAATTACCCTCGATATGTCACCCCTGTCAGCGCGGCATGGGCGGTTTACTCCCGATGCTGCCCGCCCGATAAGGGACCGCGCAAAACGTAATTTGTGTAAGGAGAATGCCATGCGCACTCTTAAGTCTCTCGTAATCGTCTCGG (double strand) [omp25 193-bp fragment (-159 to +34)]”, the binding result was “binds” in data set [1] (label: DIG (EMSA), HEX or FAM (footprinting), letters put together from the description) and “binds” in data set [4]. As for “CAGCTTCGCTGCATTGCTGGCAATGGTTTCGGCTTCTCCTGTCTGTTGCCCCTTCAATATAGGGTGTGAAAGCCGGCGTTGCGATAATGCAACATCGCATTTTTGCCATCTTCTCGACAGATTATCTCCACACAATGGGGC (double strand) [omp25 141-bp fragment (-262 to -122)]”, in data set [1] (P-BvrR 0.1-1.6 uM, label: DIG, letters put together from the description), the binding result is recorded as “binds”.
